Compound potency records, mixed from different reports. Data source: NIAID ChemDB in PubChem.

Shared fields: growth or infection tests; species: Pneumocystis carinii; measure: inhibition

Inhibition is in % at the dose shown (toxicity tests: loss of growth or viability). An empty or dashed field is not shown. Rows are shuffled and stem from different studies.

structure | conditions | tested at | cell line | value
CCCCCCCCN=C(N)c1ccc(N2CCN(c3ccccc3)CC2)cc1 | - | 0.1 µg/mL | - | 0%
NC(=NCC1CC1)c1ccc(N2CCCN(c3ccc(C(N)=NCC4CC4)cc3)CC2)cc1 | - | 1 µM | - | 67%
CCCN=C(N)c1ccc(N2CCN(c3ccccc3)CC2)cc1 | - | 10 µg/mL | - | 72%
COCCn1ccc(=O)c(O)c1C | 7 d | 18 µM | Human fibroblasts | 21%
CCCCCCN=C(N)c1ccc(N2CCN(c3ccccc3)CC2)cc1 | - | 50 µg/mL | - | 91%
O=c1[nH]cnc2c1ncn2[C@@H]1O[C@H](CO)[C@@H](O)[C@H]1O | - | 100 µM | - | 30%
CC(=O)N(O)CCCCCNC(=O)CCC(=O)N(O)CCCCCNC(=O)CCC(=O)N(O)CCCCCN.[Ca] | 7 d | 30 µM | Human fibroblasts | 95%
CCCCCN=C(N)c1ccc(N2CCCN(c3ccc(C(N)=NCCCCC)cc3)CC2)cc1 | - | 1 µM | - | 42%
CN(C)c1nc(N)c(C(=O)N=C(N)N)nc1Cl | - | 100 µM | - | 31%
NCCCNCCCCCCCNCCCN | - | 30 µM | - | 0%
CCN=C(N)c1ccc(N2CCN(c3ccccc3)CC2)cc1 | - | 10 µg/mL | - | 87%
Cc1c(O)c(=O)ccn1C | 7 d | 18 µM | Human fibroblasts | 43%
NC(=NCCO)c1ccc(N2CCCN(c3ccc(C(N)=NCCO)cc3)CC2)cc1 | - | 1 µM | - | 0%
N=C(N)c1ccc(OCCCCCOc2ccc(C(=N)N)cc2)cc1 | - | 10 µg/mL | - | 88%
CCc1c(O)c(=O)ccn1CC | 7 d | 72 µM | Human fibroblasts | 85%

Repeating the final 2 entries:

structure,conditions,tested at,cell line,value
N=C(N)c1ccc(OCCCCCOc2ccc(C(=N)N)cc2)cc1,-,10 µg/mL,-,88%
CCc1c(O)c(=O)ccn1CC,7 d,72 µM,Human fibroblasts,85%